## Mutational scan of HIV-1 Vif (1203) in cells with APOBEC3G

Source: Langley et al. 2025, preprint (doi:10.1101/2025.10.20.683452), supplementary data.

Scanned stretch, residues 12 to 115 of Vif from HIV-1 1203 (a subtype B primary isolate):
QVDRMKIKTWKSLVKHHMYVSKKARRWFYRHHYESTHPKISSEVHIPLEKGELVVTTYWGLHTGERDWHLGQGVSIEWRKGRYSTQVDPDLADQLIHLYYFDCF

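Pooled viruses with one designed change each in Vif went through two 72 h rounds in SupT1 cells expressing APOBEC3G. Frequencies after the second round, in three biological replicates, were compared with the merged pool after the first round. Changes do not touch integrase, since the pol overlap was removed.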

Values are log2 enrichment relative to wild type (0); lower means weaker defence against APOBEC3G and poorer growth.
Substitutions are written as wild-type residue, site number, new residue.
The median of three replicates is given.
Input reads are the counts in the merged round-one pool, before selection.
The scan is noisy: the rank correlation of replicates is about 0.4 to 0.65, and variants with under about 50 input reads tend to read too high.

| change | input reads | median log2 enrichment |
|---|---|---|
| R15K | 27 | 0.70 |
| R15L | 236 | -2.10 |
| R15S | 676 | -0.30 |
| R15W | 262 | -1.52 |
| M16K | 41 | -1.17 |
| M16T | 293 | -1.94 |
| M16W | 428 | -2.06 |
| K19Y | 22 | 0.26 |
| T20H | 27 | 0.71 |
| K22P | 2007 | -1.88 |
| K22V | 36 | 0.48 |
| K26I | 168 | 1.57 |
| M29F | 243 | -0.58 |
| Y30F | 508 | -2.29 |
| Y30W | 43 | 4.39 |
| K34S | 379 | -1.96 |
| R36L | 37 | -3.28 |
| W38F | 157 | -1.08 |
| W38H | 206 | -2.91 |
| F39G | 374 | -2.32 |
| F39I | 128 | -0.78 |
| Y40S | 21 | -0.22 |
| R41G | 52 | 3.62 |
| H42S | 477 | -0.24 |
| H43Q | 371 | -1.07 |
| S46H | 81 | -0.89 |
| S46K | 364 | -2.12 |
| H48I | 473 | -2.27 |
| P49I | 123 | -4.98 |
| K50P | 1270 | -2.24 |
| K50V | 907 | -1.89 |
| I51N | 111 | -2.89 |
| I51R | 171 | -2.37 |
| V55I | 114 | -0.48 |
| H56K | 116 | -1.72 |
| H56W | 256 | -2.12 |
| P58A | 253 | -1.94 |
| L59C | 175 | -1.14 |
| G62W | 180 | -3.96 |
| V65G | 315 | -2.64 |
| W70G | 183 | -1.64 |
| L72V | 19 | -1.13 |
| T74N | 124 | -2.72 |
| D78S | 292 | -2.90 |
| W79C | 68 | 0.61 |
| L81F | 292 | -4.36 |
| Q83C | 212 | -1.76 |
| E88D | 47 | -0.54 |
| R90W | 131 | 0.46 |
| R90Y | 105 | -4.76 |
| K91N | 4086 | -0.93 |
| S95T | 490 | -1.12 |
| V98D | 147 | -2.93 |
| V98K | 314 | -2.65 |
| V98Q | 222 | -2.71 |
| D101C | 578 | -2.94 |
| A103C | 450 | -2.62 |
| D104Y | 79 | -0.79 |
| Q105N | 46 | -1.65 |
| Q105V | 126 | -2.70 |
| L106D | 20 | 4.17 |
| L106Q | 166 | -2.51 |
| H108K | 159 | -2.74 |
| Y110R | 203 | -2.92 |
| Y111G | 381 | -2.21 |
| F112L | 115 | 1.96 |
| D113H | 3154 | -0.83 |
| F115H | 132 | -1.53 |
| F115R | 251 | 1.08 |

Extract of 3 entries:

* M16T (input reads 293) = -1.94
* H43Q (input reads 371) = -1.07
* F39I (input reads 128) = -0.78

The authors note that some positive scores may be noise, and some enriched variants failed when tested singly.
Not every substitution is listed.